Pooled drug test results. Numbers come from NIAID ChemDB, via PubChem.

All rows: whole-cell or culture tests; agent: HIV-1; measure: EC50

Lines come from different laboratories, so protocols vary. ECn is the concentration giving n% inhibition of infection, replication or growth. An empty or dashed field is not shown.

smiles,changes,cells,conditions,strain,method,result
Cc1cc(S(N)(=O)=O)ccc1NC(=O)COc1ccc(Cl)cc1C(=O)c1cc(Cl)cc(C#N)c1,RT-P225H,MAGI,-,NNRTI-resistant (RT P225H),β-galactosidase,0.0003 µM
Cc1ccnc2c1NC(=O)c1cccnc1N2C1CC1,RT-K103N,CEM + CEM-SS,-,NL4-3,XTT,>2 µM
CC(=O)N1CCC(C(=O)N(CCCN2CCC(Cc3ccc(C(N)=O)cc3)CC2)c2ccc(C)c(Cl)c2)CC1,-,U87 (CD4+ CCR5+) + U87,-,R5 subtype B_5 recombinant,luciferase,0.012 µM
CCc1c(Sc2ccccn2)n(COCc2ccccc2)c(=O)[nH]c1=O,RT-Y181C,CEM + CEM-SS,-,UC82-R (RT-Y181C),cytopathic effect / XTT,4.1 µM
CC(C)CN(C[C@@H](O)[C@H](Cc1ccccc1)NC(=O)O[C@H]1CCOC1)S(=O)(=O)c1ccc(N)cc1,L10I N37D G48V I54V L63P G73C I84V L90M,MT-4,-,NL4-3,p24 / luminescence,>1 µM
CCc1c(C(=O)c2cc(C)cc(C)c2)n(CC2CC=CC2)c(=O)[nH]c1=O,-,CEMx174 + CEM,-,IIIB,cytopathic effect / XTT,0.003 µM
CN[C@H]1CO[C@@H]2OCC[C@H](OC(=O)N[C@@H](Cc3cccc(OC)c3)[C@H](O)CN(CC(C)C)S(=O)(=O)c3ccc4nc(NC(C)C)sc4c3)[C@@H]21,L10I I15V K20R L24I V32I M36I M46I I54V I62V L63P K70Q V82A L88M,MT-4,-,NL4-3,p24 / luminescence,0.0024 µM
Cc1ccnc2c1NC(=O)c1cccnc1N2C1CC1,-,CEM + CEM-SS,-,SK1,cytopathic effect / XTT,0.2 µM
C[C@H](Cn1cnc2c(N)ncnc21)OCP(=O)(O)O,RT-M41L A62V S68N G112S M184V,HeLa,-,Recombinant,luciferase,0.278 µM
COc1ccc(S(=O)(=O)N(CC(C)C)C[C@@H](O)[C@H](Cc2ccccc2)NC(=O)O[C@H]2CCO[C@H]3OCC[C@H]32)cc1,L10I I15V K20R L24I V32I M36I M46I I54V I62V L63P K70Q V82A L88M,MT-4,-,NL4-3,p24 / luminescence,0.427 µM
CCn1nc(Cc2ccc(F)c(F)c2)cc1C1CCN(C[C@H]2CN([C@@H](C(=O)O)C(C)C)C[C@@H]2c2cccc(F)c2)CC1,-,HeLa,-,BaL,β-galactosidase,<0.0074 µM
Cc1ccc(S(=O)(=O)N(CC(C)C)C[C@@H](O)[C@H](Cc2ccccc2)NC(=O)O[C@H]2CO[C@H]3OCC[C@H]32)cc1,R41K,MT-2,-,IIIB,p24 / ELISA,0.008 µM
CCn1nc(Cc2ccc(Oc3ccccc3)cc2)cc1C1CCN(C[C@H]2CN([C@@H](C(=O)O)C(C)C)C[C@@H]2c2cccc(F)c2)CC1,-,HeLa,-,BaL,β-galactosidase,<0.011 µM
Cn1c2ccccc2c2c1cc(C#N)c(=O)n2-c1ccc([N+](=O)[O-])cc1,-,HeLa,-,NL4-3 WT,luciferase,0.0451 µM
CC(C)CN(C[C@@H](O)[C@H](Cc1ccccc1)NC(=O)O[C@H]1CCOC1)S(=O)(=O)c1ccc(N)cc1,I401T R409K D437N,MT-2,-,IIIB,p24 / ELISA,0.0473 µM
C#C[C@]1(CO)O[C@@H](n2cnc3c(N)nc(F)nc32)C[C@@H]1O,T165A/M184I,MT4-GFP,-,Clinical isolate,fluorescence,0.0078 µM
O=c1[nH]cnc2c1ncn2[C@H]1CC[C@@H](CO)O1,RT-M41L A62V S68N G112S V118I M184V,HeLa,-,Recombinant,luciferase,1.85 µM
CC[C@H](C)[C@H](C(=O)O)N1C[C@H](CN2CCC(c3cc(Cc4ccc(OC)c(OC)c4)nn3CC)CC2)[C@@H](c2cccc(F)c2)C1,-,HeLa,50% human serum,BaL,β-galactosidase,<0.033 µM
CCCc1cc(=O)oc2c3c(c4c(c12)OC(C)(C)C=C4)O[C@@H](C)[C@H](C)[C@@H]3O,-,CEM + CEM-SS,-,IIIB,XTT,0.1 µM
COC(=O)N[C@H](C(=O)N[C@@H](Cc1ccccc1)[C@@H](O)CN(Cc1ccc(-c2ccccn2)cc1)NC(=O)[C@@H](NC(=O)OC)C(C)(C)C)C(C)(C)C,R41K,MT-2,-,IIIB,p24 / ELISA,0.0008 µM
CC[C@H](C)[C@H](C(=O)O)N1C[C@H](CN2CCC(c3cc(Cc4ccc(S(=O)(=O)c5ccccc5)cc4)nn3CC)CC2)[C@@H](c2cccc(F)c2)C1,-,HeLa,50% human serum,BaL,β-galactosidase,<0.011 µM
CC(C)=CCN1c2cc(Cl)cc3[nH]c(=S)n(c23)C[C@@H]1C,-,MT-4,-,WT,-,<0.1 µM
CC(=O)c1ccc(C)cc1NC(C(N)=O)c1c(Cl)cccc1Cl,-,CEM + CEM-SS,-,IIIB,XTT,0.03 µM
CN[C@H]1CO[C@@H]2OCC[C@H](OC(=O)N[C@@H](Cc3ccccc3)[C@H](O)CN(CC(C)C)S(=O)(=O)c3ccc4nc(NC5CC5)sc4c3)[C@@H]21,L10I M46L I54V V82A,MT-4,-,NL4-3,p24 / luminescence,0.0032 µM
Cc1cn([C@H]2C[C@H](N=[N+]=[N-])[C@@H](CO)O2)c(=O)[nH]c1=O,RT-T139I,CEM + CEM-SS,-,NL4-3,XTT,0.003 µM
Cc1ccnc2c1NC(=O)c1cccnc1N2C1CC1,KM0148,C8166,-,Clinical isolate,ELISA,0.135 µM
CO[P@](=O)(c1cc(C)cc(/C=C/C#N)c1)c1c(C(N)=O)[nH]c2ccc(Cl)cc12,K103N,MT-4,-,NL4-3,ELISA,0.0015 µM
CC(C)=CCN1Cc2cc(Cl)cc3[nH]c(=S)n(c23)C[C@@H]1C,RT-M41L T215Y,HT4 + HT4 LacZ-1,-,HXB2,plaque count,0.11 µM
C/C=C/CSc1cc(NC(=S)c2ccsc2C)ccc1Cl,RT-Y181C,CEM + CEM-SS,-,UC82-R (RT-Y181C),cytopathic effect / XTT,>2 µM
CCn1nc(Cc2ccc(OC)c(C#N)c2)cc1C1CCN(C[C@H]2CN([C@@H](C(=O)O)C(C)C)C[C@@H]2c2cccc(F)c2)CC1,-,HeLa,50% human serum,BaL,β-galactosidase,<0.3 µM
Cc1occc1C(=S)Nc1ccc(Cl)c(/C=N/OC(C)(C)C)c1,RT-A98G,CEM + CEM-SS,-,NL4-3 (RT A98G),cytopathic effect / XTT,0.7 µM
CCN[C@H]1CO[C@@H]2OCC[C@H](OC(=O)N[C@@H](Cc3ccccc3)[C@H](O)CN(CC(C)C)S(=O)(=O)c3ccc4nc(NC5CC5)sc4c3)[C@@H]21,L10I I54V K20R L24I V32I L33F M36I M46I I54M L63P K70Q V82I I84V L89M,MT-4,-,NL4-3,p24 / luminescence,0.062 µM
CCCc1cc(=O)oc2c3c(c4c(c12)OC(C)(C)C=C4)O[C@H](C)[C@@H](C)[C@@H]3O,RT-L100I T139I,CEM + CEM-SS,-,Costatolide-resistant (RT L100I T139I),XTT,>27 µM

For reference, 3 entries again:

| smiles | changes | cells | conditions | strain | method | result |
|---|---|---|---|---|---|---|
| Cc1ccnc2c1NC(=O)c1cccnc1N2C1CC1 | KM0148 | C8166 | - | Clinical isolate | ELISA | 0.135 µM |
| CN[C@H]1CO[C@@H]2OCC[C@H](OC(=O)N[C@@H](Cc3cccc(OC)c3)[C@H](O)CN(CC(C)C)S(=O)(=O)c3ccc4nc(NC(C)C)sc4c3)[C@@H]21 | L10I I15V K20R L24I V32I M36I M46I I54V I62V L63P K70Q V82A L88M | MT-4 | - | NL4-3 | p24 / luminescence | 0.0024 µM |
| C/C=C/CSc1cc(NC(=S)c2ccsc2C)ccc1Cl | RT-Y181C | CEM + CEM-SS | - | UC82-R (RT-Y181C) | cytopathic effect / XTT | >2 µM |